Source: US11185076B2 (priority 2017, dated 2021)
Like-named read-outs stand apart in the source and are kept apart here.

Tested on: rice leaf blight bacteria (Xanthomonas oryzae pv. oryzae)
Format: in vivo
Conditions: soil drench, 10 days before inoculation

`CCC1(C(=O)N[C@H](C)c2ccc(Cl)cc2)C(C)C1(Cl)Cl` (stereo partly shown) [Carpropamide (e), carpropamid] was tested, and the “Result (control effect)” value (90 g ai/10a) was “B (a control value of 20 or more was evaluated as B (control effect was observed))” and the “Result (control effect)” value (180 g ai/10a) was “B (a control value of 20 or more was evaluated as B (control effect was observed))”.

With `Cc1ccc(C(=O)NC[C@@H](NC(=O)OCC(F)(F)F)C(C)C)cc1` [Tolprocarb (a), tolprocarb] the “Result (control effect)” value (90 g ai/10a) was “B (a control value of 20 or more was evaluated as B (control effect was observed))” and the “Result (control effect)” value (180 g ai/10a) was “A (a control value of 50 or more was evaluated as A (high control effect was observed))”.

In the case of `C=CCOC1=NS(=O)(=O)c2ccccc21` [Probenazole (h), probenazole], the “Result (control effect)” value (250 g ai/10a) is reported as “A (a control value of 50 or more was evaluated as A (high control effect was observed))”.

With `Cc1cccc2sc3nncn3c12` [Tricyclazole (c), tricyclazole] the “Result (control effect)” value (180 g ai/10a) was “B (a control value of 20 or more was evaluated as B (control effect was observed))”.

In the case of `C[C@@H](NC(=O)C(C#N)C(C)(C)C)c1ccc(Cl)cc1Cl` (stereo partly shown) [Diclosimette (f), diclocymet], the “Result (control effect)” value (90 g ai/10a) is reported as “B (a control value of 20 or more was evaluated as B (control effect was observed))” and the “Result (control effect)” value (180 g ai/10a) is reported as “A (a control value of 50 or more was evaluated as A (high control effect was observed))”.

`O=C1OCc2c(Cl)c(Cl)c(Cl)c(Cl)c21` [Fthalide (d), fthalide] was tested, and the “Result (control effect)” value (180 g ai/10a) was “B (a control value of 20 or more was evaluated as B (control effect was observed))”.

In the case of `CC(Oc1ccc(Cl)cc1Cl)C(=O)NC(C)(C#N)C(C)C` (stereo not shown) [Fenoxanil (g), fenoxanil], the “Result (control effect)” value (90 g ai/10a) is reported as “A (a control value of 50 or more was evaluated as A (high control effect was observed))” and the “Result (control effect)” value (180 g ai/10a) is reported as “A (a control value of 50 or more was evaluated as A (high control effect was observed))”.

With `O=C1CCc2cccc3c2N1CC3` [Pyroquilon (b), pyroquilon] the “Result (control effect)” value (90 g ai/10a) was “B (a control value of 20 or more was evaluated as B (control effect was observed))” and the “Result (control effect)” value (180 g ai/10a) was “A (a control value of 50 or more was evaluated as A (high control effect was observed))”.
